A mixed list of measured activities; the numbers were collected in NIAID ChemDB.

Shared fields: growth or infection tests; organism: Mycobacterium tuberculosis

A number after MIC or MFC names an inhibition level or a share of isolates. Percent inhibition refers to the dose given; in toxicity tests it is the harm to the cells. An empty or dashed field is not shown. ECn: concentration that inhibits the pathogen or its effect by n%. MIC bound: limit read from a one-dose screen. Conditions beyond the fields shown may differ between rows.

compound,mutations,conditions,strain,dose,cell line,method,read-out,result
C/C(=C\c1ccccc1)C1NC(=S)NC1=O,-,-,H37Rv,6.25 µg/mL,-,-,inhibition,95%
CCOC(=O)c1cnccn1,Pyrazinamide-resistant,pH 6.0,-,-,-,resazurin,MIC90,>657 µM
C/C(CCn1[nH]c(=O)ccc1=O)=N\NC(=O)C(=O)NN,-,-,H37Rv,-,-,BACTEC,MIC bound,>12.5 µg/mL
NNC(=O)c1ccncc1,-,-,H37Ra ATCC 25177,-,-,broth dilution / turbidity,MIC,0.03 µg/mL
O=C(OCCCl)c1cnccn1,-,-,H37Rv,-,-,resazurin,MIC90,72.1 µM
CN(C)c1ccc(N=C2C=CC(=[N+](C)C)C=C2)cc1,-,-,H37Rv,12.5 µg/mL,-,BACTEC,inhibition,48%
Nc1c(-c2ccccc2)c2cc([N+](=O)[O-])ccc2[nH]c1=O,-,-,H37Rv,-,-,-,EC50,>6.25 µg/mL
NC1[C@H]2CN(c3nc4c(cc3F)c(=O)c(C(=O)O)cn4-c3ccc(F)cc3F)C[C@@H]12,-,-,33 strains,-,-,-,MIC50,16 µg/mL
CC1=C(/C=C/C(C)=N/NC(=O)c2ccc[n+](C)c2)C(C)(C)CCC1.Cc1ccc(S(=O)(=O)[O-])cc1,-,-,H37Rv,-,-,BACTEC,MIC,≥12.5 µg/mL
C/C=C/C/C=C/CCC(=O)[C@H]1O[C@H]1C(N)=O,-,-,Isolate H155,-,-,-,MIC,≤1.5 µg/mL
CN[C@@H]1[C@H](O[C@H]2[C@H](O[C@H]3[C@H](O)[C@@H](O)[C@H](N=C(N)N)[C@@H](O)[C@@H]3N=C(N)N)O[C@@H](C)[C@]2(O)C=O)O[C@@H](CO)[C@H](O)[C@H]1O,-,-,MTCC 200,-,-,broth dilution,MIC,60 µg/mL
O=C1C(=Cc2ccccc2O)N=C(c2ccccc2)N1n1c(-c2ccccc2)nc2ccccc2c1=O,-,-,H37Rv,12.5 µg/mL,-,BACTEC,inhibition,27%
COC(=O)/C=C/c1cc(OC)c2oc(-c3ccc4c(c3)OCO4)cc2c1,-,-,H37Ra ATCC 25177,-,-,broth dilution / turbidity,MIC,>50 µg/mL
Nc1ccc2cc(-n3nncc3COc3nc(-c4ccccc4)sc3C(=O)O)c(=O)oc2c1,-,-,H37Rv,-,-,resazurin,MIC,27.08 µM
CC(CCC(=O)OCc1cn(CC2OC(n3cnc4c(N)ncnc43)[C@@H]3OC(C)(C)O[C@H]23)nn1)[C@H]1CCC2C3C(C[C@H](O)[C@@]21C)[C@@]1(C)CC[C@@H](O)CC1C[C@H]3O,-,-,H37Rv,-,-,resazurin,MIC,8.02 µM
CCOC(=O)/C=C(\C)Nc1ccc(N/C(C)=C/C(=O)OCC)c2c1Oc1ccccc1O2,-,-,H37Rv,-,-,resazurin,MIC bound,>6.25 µg/mL
CO[C@H]1/C=C/O[C@@]2(C)Oc3c(C)c(O)c4c(O)c(c(/C=N/N=C(\C)N(C)C)c(O)c4c3C2=O)NC(=O)/C(C)=C\C=C\[C@H](C)[C@H](O)[C@@H](C)[C@@H](O)[C@@H](C)[C@H](OC(C)=O)[C@@H]1C,-,-,H37Rv,-,-,-,MIC,0.032 µg/mL
CC(=O)N1C(=O)C2(Nc3ccccc3N2)c2ccccc21,-,-,H37Rv,-,-,BACTEC,MIC bound,>12.8 µg/mL
CCN(CC)c1cc2c(O)c3c(O)c(C)c4c(c13)C(=O)[C@@](C)(O/C=C/[C@H](OC)[C@@H](C)[C@@H](OC(C)=O)[C@H](C)[C@H](O)[C@H](C)[C@@H](O)[C@@H](C)/C=C/C=C(/C)C(=O)N2)O4,-,-,H37Rv,-,-,-,MIC,0.05 µg/mL
COc1ccc(/C=C2\N=C(c3ccccc3)OC2=O)c(Cl)c1OC,-,-,H37Rv,12.5 µg/mL,-,BACTEC,inhibition,23%
COc1cc(/C=C/C2c3c(ccc(OC)c3OC)-c3ccc4cc5c(cc4c3N2C)OCO5)ccc1O,-,-,H37Rv (ATCC 27294),-,-,broth dilution / turbidity,MIC,50 µg/mL
O=C1NC(=S)N/C1=C/c1cccc(Oc2ccccc2)c1,-,-,H37Rv,6.25 µg/mL,-,-,inhibition,78%
CC1CCCCN1c1cncc(C(=O)NO)n1,-,-,H37Rv,-,-,-,MIC,500 µg/mL
Cn1c(=O)c(N)c(-c2ccccc2)c2cc(Cl)ccc21,-,-,H37Rv,6.25 µg/mL,-,-,inhibition,5%
CC1=C2C(=CO[C@H](C)[C@H]2C)C(=O)C(C(=O)O)=C1O,-,-,49,10 µg/mL,-,-,inhibition,40%
O=Cc1sc(-c2cccnc2)nc1OCc1cnnn1-c1cc2ccc(O)cc2oc1=O,-,-,H37Rv,-,-,resazurin,MIC,27.93 µM
O=S(=O)(O)c1cc2cc(S(=O)(=O)O)c3nnc4cc(S(=O)(=O)O)cc5cc(S(=O)(=O)O)c(nnc6cc(S(=O)(=O)O)cc7cc(S(=O)(=O)O)c(nnc(c1)c2c3O)c(O)c76)c(O)c54,-,-,H37Rv,12.5 µg/mL,-,BACTEC,inhibition,17%
CCCCN(CCCC)c1cc2c(O)c3c(O)c(C)c4c(c13)C(=O)[C@@](C)(O/C=C/[C@H](OC)[C@@H](C)[C@@H](OC(C)=O)[C@H](C)[C@H](O)[C@H](C)[C@@H](O)[C@@H](C)/C=C/C=C(/C)C(=O)N2)O4,-,-,H37Rv,-,-,-,MIC,0.2 µg/mL
Cc1c(-[n+]2ccccc2)c(=O)[nH]c2ccccc12,-,-,H37Rv,-,-,-,EC50,>6.25 µg/mL
Cc1cc(=O)[nH]c(Nc2nc3cc(C)c(C)cc3[nH]2)n1,-,-,-,6.25 µg/mL,-,resazurin,inhibition,-15%
O=C1NC(=O)/C(=C/c2cccc(OCc3ccc(Cl)cc3)c2)N1,-,-,H37Rv,-,-,-,EC50,<6.25 µg/mL
CC(=O)c1nc2ccccc2n1CC(=O)c1ccc([N+](=O)[O-])cc1,-,-,H37Rv,-,-,resazurin,MIC bound,>6.25 µg/mL
CCC(C)[C@H](NC(=O)CCC(C)[C@H]1CCC2C3CCC4C[C@H](O)CC[C@]4(C)C3C[C@H](O)[C@@]21C)C(=O)OCc1cn(CC2OC(n3cnc4c(N)ncnc43)[C@@H]3OC(C)(C)O[C@H]23)nn1,-,-,H37Rv,-,-,resazurin,MIC,14.26 µM
COc1ccc(/C=C2\N=C(c3ccccc3)OC2=O)c(OC)c1C,-,-,H37Rv,-,-,BACTEC,MIC,12.5 µg/mL
NNC(=O)c1ccncc1,-,-,mc(^2)7000,-,-,agar,MIC99,0.1 µg/mL
O=C1NC(=O)/C(=C/c2cccc(OCc3ccccc3)c2)N1,-,-,H37Rv,6.25 µg/mL,-,-,inhibition,86%
C=CCN(CC=C)/C(C)=N/N=C/c1c2c(O)c3c(O)c(C)c4c(c3c1O)C(=O)[C@@](C)(O/C=C/[C@H](OC)[C@@H](C)[C@@H](OC(C)=O)[C@H](C)[C@H](O)[C@H](C)[C@@H](O)[C@@H](C)/C=C/C=C(/C)C(=O)N2)O4,-,-,H37Rv,-,-,-,MIC,0.016 µg/mL
Nc1ccc2cc(-n3nncc3COc3nc(-c4ccccc4)sc3C=O)c(=O)oc2c1,-,-,H37Rv,-,-,resazurin,MIC,14.03 µM
CCCCCCCCS(=O)(=O)CC(N)=O,-,-,7D5245,-,-,-,MIC,≤6.25 µg/mL
O=C1C(Cl)=C(Nc2cc(Cl)ccc2Cl)C(=O)c2ccccc21,-,-,H37Rv,-,-,BACTEC,MIC bound,>12.5 µg/mL
Nc1ccc2cc(-n3nncc3COc3nc(-c4ccccn4)sc3C(=O)O)c(=O)oc2c1,-,-,H37Rv,-,-,resazurin,MIC,13.5 µM
COc1ccc2c(c1OC)CN(C)c1c-2ccc2cc3c(cc12)OCO3,-,-,H37Rv (ATCC 27294),-,-,broth dilution / turbidity,MIC,>50 µg/mL
CO[C@H]1/C=C/O[C@@]2(C)Oc3c(C)c(O)c4c(O)c(cc(N5CCC(C)CC5)c4c3C2=O)NC(=O)/C(C)=C\C=C\[C@H](C)[C@H](O)[C@@H](C)[C@@H](O)[C@@H](C)[C@H](OC(C)=O)[C@@H]1C,-,-,H37Rv,-,-,-,MIC,0.2 µg/mL
CCCCCCOCCN1CCN(CCCN2c3ccccc3Sc3ccc(C(F)(F)F)cc32)CC1.Cl.Cl,-,-,H37Rv,-,VERO,BACTEC,MIC,6.25 µg/mL
CC1CCCCN1c1cncc(C(=O)NN)n1,-,-,Isoniazid-resistant,-,-,-,MIC,62.5 µg/mL
COC(=O)c1sc(-c2ccccn2)nc1OCc1cnnn1-c1cc2ccc(N)cc2oc1=O,-,-,H37Rv,-,-,resazurin,MIC,6.5 µM
CCC(C)[C@H](NC(=O)CCC(C)[C@H]1CCC2C3C(C[C@H](O)[C@@]21C)[C@@]1(C)CC[C@@H](O)CC1C[C@H]3O)C(=O)OCc1cn(CC2OC(n3ccc(=O)[nH]c3=O)[C@@H]3OC(C)(C)O[C@H]23)nn1,-,-,H37Rv,-,-,resazurin,MIC,7.19 µM
Cc1ccc([N+](=O)[O-])cc1NC(=O)Nc1cccc(Cl)c1,-,-,-,-,-,broth dilution / turbidity,MIC90,0.2 µg/mL
CO[C@H]1/C=C/O[C@@]2(C)Oc3c(C)c(O)c4c(O)c(cc(N5CCCCC5C)c4c3C2=O)NC(=O)/C(C)=C\C=C\[C@H](C)[C@H](O)[C@@H](C)[C@@H](O)[C@@H](C)[C@H](OC(C)=O)[C@@H]1C,-,-,H37Rv,-,-,-,MIC,0.05 µg/mL
NC(=O)c1cncc(-n2cncn2)n1,-,-,SP 607,-,-,-,MIC,2000 µg/mL
CCOc1ccc2cc(-n3nncc3COc3nc(-c4cccnc4)sc3C(=O)OC)c(=O)oc2c1,-,-,H37Rv,-,-,resazurin,MIC,12.36 µM
CC(=O)Nc1c(C)c2ccccc2[nH]c1=O,-,-,H37Rv,6.25 µg/mL,-,-,inhibition,0%
C=CCN(CC=C)c1cc2c(O)c3c(O)c(C)c4c(c13)C(=O)[C@@](C)(O/C=C/[C@H](OC)[C@@H](C)[C@@H](OC(C)=O)[C@H](C)[C@H](O)[C@H](C)[C@@H](O)[C@@H](C)/C=C/C=C(/C)C(=O)N2)O4,-,-,H37Rv,-,-,-,MIC,0.1 µg/mL
CC(=O)Nc1c(-c2ccccc2)c2cc(Cl)ccc2n(C)c1=O,-,-,H37Rv,-,-,-,EC50,>6.25 µg/mL
COC(=O)c1cnccn1,Pyrazinamide-resistant,pH 6.0,-,-,-,resazurin,MIC90,>724 µM
O=S1(=O)c2cc(S(=O)(=O)n3ccnc3)ccc2NC2=NCCCN21,-,-,H37Rv,-,-,BACTEC,MIC,≥12.8 µg/mL
CC1COc2c(N3CCN(C)CC3)c(F)cc3c(=O)c(C(=O)O)cn1c23,-,-,H37Rv,-,-,resazurin,MIC,2.16 µM
COc1cc2c(cc1OC)C(c1cc(OC)c(OC)c(OC)c1)C1(O)C(=O)OCC1(O)C2,-,-,H37Rv,12.8 µg/mL,-,BACTEC,inhibition,-3%
CCOc1ccc2cc(-n3nncc3COc3nc(-c4ccccc4)sc3C(=O)O)c(=O)oc2c1,-,-,H37Rv,-,-,resazurin,MIC,25.49 µM
CCN(C)/C(C)=N/N=C/c1c2c(O)c3c(O)c(C)c4c(c3c1O)C(=O)[C@@](C)(O/C=C/[C@H](OC)[C@@H](C)[C@@H](OC(C)=O)[C@H](C)[C@H](O)[C@H](C)[C@@H](O)[C@@H](C)/C=C/C=C(/C)C(=O)N2)O4,-,-,H37Rv,-,-,-,MIC,0.016 µg/mL
COc1ccc2c(cnc3c4cc5c(cc4ccc23)OCO5)c1OC,-,-,H37Rv (ATCC 27294),-,-,broth dilution / turbidity,MIC,>50 µg/mL
NNC(=O)c1ccncc1,-,-,MTCC 200,-,-,broth dilution,MIC,20 µg/mL
CCN(CC)/C(C)=N/N=C/c1c2c(O)c3c(O)c(C)c4c(c3c1O)C(=O)[C@@](C)(O/C=C/[C@H](OC)[C@@H](C)[C@@H](OC(C)=O)[C@H](C)[C@H](O)[C@H](C)[C@@H](O)[C@@H](C)/C=C/C=C(/C)C(=O)N2)O4,-,-,H37Rv,-,-,-,MIC,0.016 µg/mL
O=C1NC(=S)N/C1=C\c1ccc(OCc2ccc(Cl)cc2)cc1,-,-,H37Rv,-,-,-,EC50,<6.25 µg/mL
CC[C@@H](CO)NCCN[C@@H](CC)CO,KatG W149R isoniazid-resistant,-,H37Rv,-,-,broth dilution,MIC99,1 µg/mL
Cc1cc(N=Nc2ccc(NC(=O)c3ccc(NC(=O)c4ccccc4)cc3)c3ccc(S(=O)(=O)O)cc23)ccc1N=Nc1ccc2c(O)cc(S(=O)(=O)O)cc2c1,-,-,H37Rv,-,-,BACTEC,MIC,≥12.5 µg/mL
CCCCCCCCCCCC(=O)CC1c2c(ccc(OC)c2OC)-c2ccc3cc4c(cc3c2N1C)OCO4,-,-,H37Ra ATCC 25177,-,-,broth dilution / turbidity,MIC,>50 µg/mL
OCNC(=S)c1cncc(-n2ccnc2)n1,-,-,Isoniazid-resistant,-,-,-,MIC,250 µg/mL
CN(C)c1ccc(/C=N/NC(=O)c2ccc(N(C)C)cc2)cc1,-,-,H37Rv,-,-,BACTEC,MIC bound,>12.5 µg/mL
O=C1NC(=S)N/C1=C/c1cccc(OCCc2ccccc2)c1,-,-,H37Rv,-,-,-,EC50,<6.25 µg/mL
CC(=O)N[C@H]1[C@@H](O[C@@H]2O[C@H](C[C@@H](O)[C@H]3O[C@@H](n4ccc(=O)[nH]c4=O)[C@H](O)[C@@H]3O)[C@H](O)[C@H](O)[C@H]2NC(=O)/C=C/CC(C)C)O[C@H](CO)[C@@H](O)[C@@H]1O,-,-,ETA-R,-,-,-,MIC,3.1 µg/mL
Nc1c(-c2ccccc2)c2cc(Cl)ccc2[nH]c1=O,-,-,H37Rv,6.25 µg/mL,-,-,inhibition,0%
Cc1ccc(Nc2cc(=O)[nH]c(N)n2)cc1C,-,-,H37Rv,12.5 µg/mL,-,BACTEC,inhibition,57%
Cc1cccc(/C=C2/NC(=S)NC2=O)c1,-,-,H37Rv,6.25 µg/mL,-,-,inhibition,88%
COc1cc(C/C=C/c2ccccc2)c(OC)cc1O,-,-,H37Rv,-,-,BACTEC,MIC bound,>12.5 µg/mL
O=C1NC(=O)/C(=C/c2ccc(C(F)(F)F)cc2)N1,-,-,H37Rv,-,-,-,EC50,<6.25 µg/mL